According to PubChem BioAssay AID1845 (The Scripps Research Institute Molecular Screening Center, 2009):
Only a part is listed here, and it is no random draw. Activity calls are given as the source filed them. Rule as the data show it: active = inhibition above about 37%; inactive = the rest.

assay: compounds displacing fluorescent DNA intercalator, primary screen, artefact control for HCV NS3 helicase inhibitor project, biochemical, FID fluorescence (AID 1845); conditions: DNA fluorescent intercalator displacement, at 7.9 µM, hits give high values;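 also: 0% = vehicle and 100% = reference compound; higher means more ethidium bromide displaced from hairpin DNA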

SMILES	inhibition
O=C(OC1CN2CCC1CC2)C1c2ccccc2C=Cc2ccccc21 (centres undefined)	inactive: 10.5%
CCOC(=O)N1CCC(Nc2ccc(C)cc2)CC1	inactive: -4.43%
N/C(=N\O)c1c(N)no[n+]1[O-]	inactive: -1.36%
COc1ccc(C(=O)NCC2(N3CCOCC3)CCCCC2)cc1OC	inactive: -5.63%
CN(C)C1(CNC(=O)c2cccc(C#N)c2)CCCCC1	inactive: -3.24%
c1ccc(CN2CCC(Nc3ccccc3)CC2)cc1	inactive: 2.83%
CCCN1CCC(Nc2cc(OC)cc(OC)c2)CC1	inactive: -0.37%
N#Cc1ccc(C(=O)NCC2(N3CCCCC3)CCCCC2)cc1	inactive: 9.87%
CC(C)(C)OC(=O)N1CCC(N(C(=O)c2ccccc2)c2ccc(Cl)cc2)CC1	inactive: -47.3%
CN(C)c1ccc(C(=O)NCC2(N3CCCCC3)CCCCC2)cc1	inactive: 1.92%
CCN1CCC(Nc2cccc(F)c2)CC1	inactive: 3.41%
COc1cc(OC)cc(C(=O)NCC2(N3CCCCC3)CCCCC2)c1	inactive: 4.67%
CN1CCC(Nc2ccc(Cl)cc2)CC1	inactive: 4.46%
CCCOc1ccc(C)cc1CN(CCCl)CCCl	inactive: 9.79%
COc1cccc(C(=O)N(c2cc(C)cc(C)c2)C2CCN(C(=O)OC(C)(C)C)CC2)c1	inactive: -39.1%
COc1cc(OC)cc(C(=O)NCC2(N3CCOCC3)CCCCC2)c1	inactive: -4.54%
CCC(CO)(C(=O)OC1CN2CCC1CC2)c1ccccc1 (centres undefined)	inactive: 3.78%
CC(C)(C)OC(=O)N1CCC(Nc2ccccc2)CC1	inactive: -15.6%
O=C(O)C1(Nc2ccccc2)CCN(Cc2ccccc2)CC1	inactive: -5.17%
CCCOc1ccc(C(=O)NCC2(N(C)C)CCCCC2)cc1	inactive: 2.46%
CCOc1ncccc1C(=O)NCC1(N2CCOCC2)CCCCC1	inactive: -9.58%
CN1CCC(Nc2ccc(F)c(Cl)c2)CC1	inactive: 2.13%
N#CC1(Nc2ccccc2)CCN(Cc2ccccc2)CC1	inactive: -0.86%
O=C(OC1CN2CCC1CC2)C1c2ccccc2Oc2ccccc21 (centres undefined)	inactive: 18.2%
CCOC(=O)N1CCC(Nc2ccc(OC)cc2)CC1	inactive: 0.34%
Cc1cc(C)cc(N(C(=O)c2ccccc2)C2CCN(C(=O)OC(C)(C)C)CC2)c1	inactive: -53.7%
O=C(NCC1(N2CCOCC2)CCCCC1)c1cc2ccccc2o1	inactive: -10.5%
CSc1ccccc1C(=O)NCC1(N2CCCCC2)CCCCC1	inactive: -5.55%
COc1ccc(C(=O)NCC2(N3CCCCC3)CCCCC2)cc1	inactive: -9.87%
